Measurements taken from paper PMC7330483, “Identification of a Broad-Spectrum Viral Inhibitor Targeting a Novel Allosteric Site in the RNA-Dependent RNA Polymerases of Dengue Virus and Norovirus” (Frontiers in Microbiology, 2020).

System: hNV-RdRp
Experiment: hNV-RdRp inhibition assay (PicoGreen dsRNA formation)
Type: biochemical, Norovirus GII.4 Sydney 2012
Conditions: dose response

Row | SMILES | hill slope of hNV RdRp inhibition
1 | O=c1[nH]c2ccccc2n1C1CCN(Cc2ccc(-c3nc4cc5[nH]cnc5cc4nc3-c3ccccc3)cc2)CC1 [RAI-5, AKT inhibitor VIII] | 1.19
2 | CN1CCN(c2ccc(C(=O)Nc3n[nH]c4ccc(Cc5cc(F)cc(F)c5)cc34)c(NC3CCOCC3)c2)CC1 [RAI-13, Entrectinib] | 2.94
3 | Cc1ccc(NC(=O)Nc2cc(C(F)(F)F)ccc2F)cc1Nc1ccc2c(c1)NC(=O)/C2=C\c1ccc[nH]1 [RAI-14, GNF-5837] | 1.88
